Anti-infective test results gathered from many reports (values: NIAID ChemDB through PubChem).

Common to all: whole-cell or culture tests; species: Pneumocystis carinii

"inactive" is the filed call at that dose; no cut-off is given. ECn: concentration that inhibits the pathogen or its effect by n%. Percent inhibition refers to the dose given; in toxicity tests it is the harm to the cells. Neighbouring rows are from separate reports. Blank or dashed fields: not listed here.

SMILES,cell line,setting,measure,dose,result
N=C(N)c1ccc(OC(=O)c2ccc(C(=O)Oc3ccc(C(=N)N)cc3)cc2)cc1,A549,,EC50,,6.38 µg/mL
Nc1ccc(S(=O)(=O)Nc2cc(Cl)cc(Cl)c2)cc1,,5 d,inhibition,100 µM,51%
COc1cc(NC(C)CCCN)c2ncccc2c1,,10 d,inhibition,10 µg/mL,100%
Nc1ccn([C@@H]2CS[C@H](CO)O2)c(=O)n1,,,EC50,,>100 µg/mL
N#Cc1ccc(N2CCN(c3ccc(C#N)cc3)CC2)cc1,A549,,EC50,,97.2 µg/mL
C[C@](O)(C1CCCCN1)C1CCC2C3CC[C@H]4C[C@@H](O)CC[C@]4(C)C3CC[C@@]21C,,,inhibition,10 µM,80%
CC(C)Nc1cccnc1N1CCN(C(=O)c2cc3cc(NS(C)(=O)=O)ccc3[nH]2)CC1,,,EC50,,>100 µg/mL
N=C(N)c1ccc(NC(=O)CCCCC(=O)Nc2ccc(C(=N)N)cc2)cc1,A549,,EC50,,0.0009 µg/mL
O=C(O)CNCP(=O)(O)O,,7 d,inhibition,10 µM,39%
O=c1[nH]cnc2c([C@@H]3O[C@H](CO)[C@@H](O)[C@H]3O)[nH]nc12,,,inhibition,1 µg/mL,inactive
c1cc(N2CCN(c3ccc(C4OCCO4)cc3)CC2)ccc1C1OCCO1,A549,,EC50,,>100 µg/mL
Nc1ccn([C@H]2CC[C@@H](CO)O2)c(=O)n1,,,EC50,,>100 µg/mL
COc1cc([C@@H]2c3cc4c(cc3[C@@H](O[C@@H]3O[C@@H]5CO[C@@H](c6cccs6)O[C@H]5[C@H](O)[C@H]3O)[C@H]3COC(=O)[C@H]23)OCO4)cc(OC)c1O,,7 d,inhibition,100 µg/mL,97%
Nc1ccc(S(=O)(=O)Nc2cc(F)cc(F)c2)cc1,,5 d,inhibition,100 µM,33%
Nc1nc(NC2CC2)c2ncn([C@H]3C=C[C@@H](CO)C3)c2n1,,,EC50,,>100 µg/mL